Pooled drug test results. Numbers come from NIAID ChemDB, via PubChem.

All rows: whole-cell or culture tests; agent: HIV-1; cell line: CEM + CEM-SS; endpoint: EC50

ECn: concentration that inhibits the pathogen or its effect by n%.

SMILES	strain	changes	method	result
Cc1ccnc2c1NC(=O)c1cccnc1N2C1CC1	NL4-3	RT-K103E	cytopathic effect / XTT	0.3 µM
Cc1occc1C(=S)Nc1ccc(Cl)c(/C=N/OC(C)(C)C)c1	NL4-3 (RT L100I)	RT-L100I	cytopathic effect / XTT	2.2 µM
Cc1ccnc2c1NC(=O)c1cccnc1N2C1CC1	3TC-resistant (RT M184V)	RT-M184V	XTT	0.01 µM
Cc1cn([C@H]2C[C@H](N=[N+]=[N-])[C@@H](CO)O2)c(=O)[nH]c1=O	McK		cytopathic effect / MTT	0.005 µM
Cc1ccnc2c1NC(=O)c1cccnc1N2C1CC1	NL4-3 (RT L74V)	RT-L74V	cytopathic effect / XTT	0.02 µM
CCCc1cc(=O)oc2c3c(c4c(c12)OC(C)(C)C=C4)O[C@@H](C)[C@H](C)[C@@H]3O	Diphenyl sulfone-resistant (RT-Y181C)	RT-Y181C	XTT	0.08 µM
CCc1c(Sc2ccccn2)n(COCc2ccccc2)c(=O)[nH]c1=O	IIIB	RT-P236L	cytopathic effect / XTT	1.1 µM
CCCc1cc(=O)oc2c3c(c4c(c12)OC(C)(C)C=C4)O[C@H](C)[C@@H](C)[C@@H]3O	UC10-resistant (RT K103N)	RT-K103N	XTT	>27 µM
Fc1cccc(F)c1C1SCc2nc3ccccc3n21	IIIB		cytopathic effect / XTT	2.33 µM
Cc1cn([C@H]2C[C@H](N=[N+]=[N-])[C@@H](CO)O2)c(=O)[nH]c1=O	NL4-3	RT-K103N	cytopathic effect / XTT	0.004 µM
Cc1occc1C(=S)Nc1ccc(Cl)c(/C=N/OC(C)(C)C)c1	Dihydrocostatolide-resistant (RT-L100I)	RT-L100I	cytopathic effect / XTT	1 µM
Cc1cn([C@H]2C[C@H](N=[N+]=[N-])[C@@H](CO)O2)c(=O)[nH]c1=O	RF		cytopathic effect / XTT	0.004 µM
O=S(=O)(c1ccccc1)c1ccccc1	UC82-R (RT-Y181C)	RT-Y181C	cytopathic effect / XTT	>114 µM
CN1N=C(N)c2cn([C@@H]3O[C@H](COP(=O)(O)O)[C@@H](O)[C@H]3O)c3ncnc1c23	C		XTT	0.06 µM
C/C=C/CSc1cc(NC(=S)c2ccsc2C)ccc1Cl	UC82-R (RT-Y181C)	RT-Y181C	cytopathic effect / XTT	>2 µM
Cc1cn([C@H]2C[C@H](N=[N+]=[N-])[C@@H](CO)O2)c(=O)[nH]c1=O	Dihydrocostatolide-resistant (RT-L100I)	RT-L100I	XTT	0.003 µM

The last 2 rows once more:

SMILES,strain,changes,method,result
C/C=C/CSc1cc(NC(=S)c2ccsc2C)ccc1Cl,UC82-R (RT-Y181C),RT-Y181C,cytopathic effect / XTT,>2 µM
Cc1cn([C@H]2C[C@H](N=[N+]=[N-])[C@@H](CO)O2)c(=O)[nH]c1=O,Dihydrocostatolide-resistant (RT-L100I),RT-L100I,XTT,0.003 µM

Lines come from different laboratories, so protocols vary. Blank or dashed fields: not listed here.